Data published in ChEMBL document CHEMBL1124922 (J Med Chem, 1990).

Legend:
[1] = Evaluated for growth inhibition of UV-4 cells under aerobic or hypoxic conditions; details: uv4
[2] = Evaluated for growth inhibition of UV-4 cells under aerobic conditions; details: uv4
[3] = Half-life was determined in culture medium at 37 degrees Celsius in alpha MEM
[4] = Ratio = (aerobic IC50 / hypoxic IC50) determined against UV-4 cells with an 18 hr exposure
[5] = IC50 value determined against UV-4 cells with an 18 hr exposure under either aerobic or hypoxic conditions (Ratio = aerobic IC50 / hypoxic IC50)
[6] = Evaluated for growth inhibition of AA8 cells under aerobic or hypoxic conditions (air/N2); details: cho-aa8

Structure (SMILES) | IC50 [2] [nM] | T1/2 [3] [h] | IC50 [4] [nM] | other results
O=Nc1ccc(N(CCCl)CCCl)cc1 | 80 |  |  | IC50 [1]: 660 nM
CSc1ccc(N(CCCl)CCCl)cc1 |  | 2.4 | 670 | 
Nc1cccc(N(CCCl)CCCl)c1 | 160 |  |  | IC50 [1]: 1000 nM
COc1ccc(N(CCCl)CCCl)cc1 |  | 0.27 | 800 | 
COc1cccc(N(CCCl)CCCl)c1 |  | 2.9 | 970 | 
CS(=O)(=O)c1cccc(N(CCCl)CCCl)c1 |  |  | 980 | 
Cl.Nc1cccc(N(CCCl)CCCl)c1 |  | 1.25 |  | 
ClCCN(CCCl)c1ccccc1 |  | 1.3 |  | IC50 [5]: 1110 nM
CN(C)C(=O)c1cccc(N(CCCl)CCCl)c1 |  |  | 980 | 
O=[N+]([O-])c1ccccc1N(CCCl)CCCl | 520 |  |  | IC50 [6]: 1000 nM
Cl.Nc1ccc(N(CCCl)CCCl)cc1 |  | 0.121 |  | 
Nc1ccccc1N(CCCl)CCCl | 480 |  |  | IC50 [6]: 530 nM
O=[N+]([O-])c1cccc(N(CCCl)CCCl)c1 | 13600 |  |  | IC50 [1]: 1500 nM
Cc1ccc(N(CCCl)CCCl)cc1 |  | 1.08 | 790 | 
CS(=O)(=O)c1ccc(N(CCCl)CCCl)cc1 |  |  | 880 | 
CN(C)C(=O)c1ccc(N(CCCl)CCCl)cc1 |  | 12.1 | 950 | 
O=[N+]([O-])c1ccc(N(CCCl)CCCl)cc1 | 22000 |  |  | IC50 [5]: 3200 nM; IC50 [1]: 3200 nM
